PubChem BioAssay AID504761 – Drosophila RNAi Screening Center, 2011
In all, the deposit lists about 22,000 reagents; below is an unselected part of those that have a named target and a result. Over the whole deposit, 116 (0.52%) are marked active. 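Calls depend on retest data that are not deposited; infection was ranked per plate without normalising between plates; the unit of the infection score is not given.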 Entries without a mark were called inactive. Names joined by + are all predicted targets of the reagent. Not all columns of the deposit are shown. No sequences are given here. Not given: the amount of reagent, the time to read-out.

Aim: 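Insect host genes that dengue virus relies on to spread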 (primary screen)
Cells: D.Mel-2 cells from Drosophila
Reagent: long dsRNA against Drosophila genes
Challenge: infection with dengue virus type 2; dose and infection time not stated
Read-out: 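Per well on two replicate plates, imaging gave the percent of cells positive for viral envelope protein, ranked by infection, and a nuclear count of cells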
Reading the numbers: infection score: higher = more virus-infected cells
Hit rule: 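Low infection ranks in the two replicates (chance level up to 0.065) followed by a retest with a 1.5-fold or larger significant decrease, p below 0.05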
Meaning of the calls: active = confirmed: knock-down lowers infection; inactive = not picked or not confirmed

CG14644 [DRSC12230]
- infection score, replicate 1: 2.38

Rbcn-3B [DRSC18574]
- infection score, replicate 1: 2.13

UGP + PGRP-LF [DRSC10418]
- infection score, replicate 1: 1.03

CG32847 [DRSC22901]
- infection score, replicate 1: 1.6

kappaTry [DRSC06146]
- infection score, replicate 1: 20.7

CG11664 [DRSC18650]
- infection score, replicate 1: 20.1

CG9123 [DRSC20156]
- infection score, replicate 1: 1.88

CG30192 [DRSC03977]
- infection score, replicate 1: 3.03

TORIP [DRSC10104]
- infection score, replicate 1: 8.26

P5cr-2 [DRSC15889]
- infection score, replicate 1: 5.32

CG33252 [DRSC19162]
- infection score, replicate 1: 1.43

bai [DRSC14388]
- infection score, replicate 1: 0.43

CG8299 [DRSC07139]
- infection score, replicate 1: 7.12

CG8299 [DRSC25580]
- infection score, replicate 1: 10.5

CG7379 [DRSC16237]
- infection score, replicate 1: 2.33

CG7379 [DRSC24324]
- infection score, replicate 1: 5.12

Nnp-1 [DRSC02165]
- infection score, replicate 1: 6.28

Nnp-1 [DRSC29816]
- infection score, replicate 1: 24.6

CG10591 [DRSC09748]
- infection score, replicate 1: 7.1

CG10591 [DRSC27468]
- infection score, replicate 1: 17.5

CG42271 [DRSC19809]
- infection score, replicate 1: 2.22

CG42271 [DRSC22894]
- infection score, replicate 1: 1.37

CG42271 [DRSC27249]
- infection score, replicate 1: 5.5

CG42271 [DRSC27338]
- infection score, replicate 1: 24.3

Samtor [DRSC04390]
- infection score, replicate 1: 2.98

Samtor [DRSC24231]
- infection score, replicate 1: 1.59

Mf [DRSC16120]
- infection score, replicate 1: 1.21

A stretch taken from the entries so far:
CG42271 [DRSC27338]
- infection score, replicate 1: 24.3

Samtor [DRSC04390]
- infection score, replicate 1: 2.98

Samtor [DRSC24231]
- infection score, replicate 1: 1.59

Mf [DRSC16120]
- infection score, replicate 1: 1.21
